Measured values from several laboratories, pooled; numbers as filed in NIAID ChemDB.

Shared fields: tests on isolated targets; agent: HIV-1; protein: Reverse transcriptase; method: nucleotide incorporation / radiometric; read-out: IC50

Blank or dashed fields: not listed here.

compound	strain	mutations	value
Cc1cc(C2CC2)cc(Cl)c1-n1c(Br)nnc1SCC(=O)Nc1ccc(S(N)(=O)=O)cc1Cl		RT-Y188L	>0.1 µM
CCN1c2ncc(CCOc3ccc(CCC(=O)O)c4c3CCCC4)cc2C(=O)N(C)c2cccnc21		RT-K103N Y181C	0.1–1 µM
O=C(CSc1nnc(Br)n1-c1ccc(C2CC2)c2ccccc12)Nc1ccc(C(=O)O)cc1Cl		RT-Y188L	>0.1 µM
CCN1c2ncc(CCOc3cccc4c3ccc[n+]4[O-])cc2C(=O)Nc2c(C)cc(Cl)nc21	IIIB		0.007 µM
CCN1c2ncc(CCOc3ccc(C(=O)O)c4c3CCCC4)cc2C(=O)N(C)c2ccc(Cl)nc21		RT-V106A	>1 µM
CCc1ccc(-n2c(Br)nnc2SCC(=O)Nc2ccc(C(=O)N[C@@H](CO)C(=O)OC)cc2Cl)c2ccccc12		RT-Y181C	<0.05 µM
O=C(CSc1nnc(C(F)F)n1-c1ccc(C2CC2)c2ccccc12)Nc1ccc(C(=O)O)cc1Cl		RT-Y188L	>0.1 µM
Cc1ccc2c(C)cc(C)c(-n3c(SCC(=O)Nc4ccc(S(N)(=O)=O)cc4C)nnc3C(F)F)c2n1		RT-Y188L	>0.1 µM
CC(C)OC(=O)CNC(=O)c1ccc(NC(=O)CSc2nnc(Br)n2-c2ccc(C3CC3)c3ccccc23)c(Cl)c1			<0.05 µM
CCN1c2ncc(CCOc3ccc(CCC(=O)O)c4ccccc34)cc2C(=O)Nc2c(C)cc(F)nc21		RT-V106A	0.1–1 µM
O=C(O)CCNC(=O)c1ccc(NC(=O)CSc2nnc(Br)n2-c2ccc(C3CC3)c3ccccc23)c(Cl)c1			<0.05 µM
O=C(O)CNC(=O)c1ccc(NC(=O)CSc2nnc(Br)n2-c2ccc(C3CC3)c3ccccc23)c(Cl)c1		RT-Y181C	<0.05 µM
CCN1c2ncc(CCOc3ccc(NS(C)(=O)=O)c4ccccc34)cc2C(=O)N(C)c2ccc(F)nc21		RT-V106A	0.1–1 µM
COc1cccc2c(-n3c(Br)nnc3SCC(=O)Nc3ccc(C(=O)O)cc3Cl)cccc12		RT-Y188L	>0.1 µM
Cc1ccc(-n2c(SCC(=O)Nc3ccc(C(=O)O)cc3Cl)nnc2C(F)F)c2c1CCCC2			<0.05 µM

2 of the rows above, restated:

{"compound": "CC(C)OC(=O)CNC(=O)c1ccc(NC(=O)CSc2nnc(Br)n2-c2ccc(C3CC3)c3ccccc23)c(Cl)c1", "value": "<0.05 µM"}
{"compound": "Cc1ccc(-n2c(SCC(=O)Nc3ccc(C(=O)O)cc3Cl)nnc2C(F)F)c2c1CCCC2", "value": "<0.05 µM"}

Lines come from different laboratories, so protocols vary. ICn is the concentration giving n% inhibition. Two numbers with a dash give a range or band.